Results of unrelated studies side by side (data: NIAID ChemDB).

All rows: whole-cell or culture tests; organism: Parainfluenza virus; method: cytopathic effect; endpoint: EC50

Neighbouring rows are from separate reports. An empty or dashed field is not shown. ECn is the concentration giving n% inhibition of infection, replication or growth. Two numbers with a dash give a range or band.

| compound | cell line | strain | result |
|---|---|---|---|
| NC(=O)c1ncn([C@@H]2O[C@H](CO)[C@@H](O)[C@H]2O)c1C#Cc1ccccc1 | VERO | TYPE 3 | >400 µg/mL |
| NC(=O)c1c[se]c([C@@H]2O[C@H](CO)[C@@H](O)[C@H]2O)n1 | VERO | TYPE 3/C243 | 1 µg/mL |
| C[C@H]1C[C@@H](n2cnc3c(N)ncnc32)[C@H](O)[C@@H]1O | VERO | VR-93 (TYPE 3) | 20 µg/mL |
| Cc1cn([C@H]2C[C@@H](CO)[C@H](O)C2)c(=O)[nH]c1=O | VERO | TYPE 3 | >400 µg/mL |
| Nc1nccc2c1ncn2[C@@H]1C[C@H](CO)[C@@H](O)[C@H]1O | HEP-2 | TYPE 3 | 14 µg/mL |
| Nc1ncnc2c1ncn2C[C@H](O)CO | VERO | TYPE 3 | 20 µg/mL |
| CCN1C[C@]2(COC)CC[C@H](OC)[C@]34C1[C@@](O)([C@@H](OC)[C@H]23)[C@@]1(O)C[C@H](OC)C2C[C@@H]4[C@@H]1[C@H]2OC(C)=O | VERO | TYPE 3 | 1–32 µg/mL |
| Nc1ncnc2c1ncn2C[C@H](O)CO | VERO | TYPE 3 | 70 µg/mL |
| Nc1nccc2c1ncn2[C@@H]1C[C@H](CO)[C@@H](O)[C@H]1O | VERO | TYPE 3 | 4 µg/mL |
| NC(=O)c1ccnc([C@@H]2O[C@H](CO)[C@@H](O)[C@H]2O)c1 | VERO | TYPE 3 | >400 µg/mL |
| NC(=O)c1ncn([C@@H]2O[C@H](CO)[C@@H](O)[C@H]2O)n1 | VERO | TYPE 3 | 48 µg/mL |
| Nc1nc2c(ncn2COCOCP(=O)(O)O)c(=O)[nH]1 | - | SF (TYPE 5) | 100 µg/mL |
| Cc1cn([C@@H]2C[C@H](CO)[C@@H](O)C2)c(=O)[nH]c1=O | VERO | TYPE 3 | >100 µg/mL |
| CCCC#Cc1c(C(N)=O)ncn1[C@@H]1O[C@H](CO)[C@@H](O)[C@H]1O | VERO | TYPE 3 | >200 µg/mL |
| Cc1cn([C@@H]2CC[C@H](CO)C2)c(=O)[nH]c1=O | VERO | TYPE 3 | >400 µg/mL |
| O=c1[nH]c(=O)n([C@H]2C[C@H](O)[C@@H](CO)O2)cc1/C=C/Br | VERO | TYPE 3 | >400 µg/mL |
| Nc1ncnc2c1ccn2[C@@H]1O[C@H](CO)[C@@H](O)[C@H]1O | VERO | TYPE 3 | >0.1 µg/mL |
| Nc1ncnc2c1ncn2CCOCP(=O)(O)O | - | TYPE 3 | >185 µM |
| Nc1ncnc2c1ncn2[C@@H]1C=C(CO)[C@@H](O)[C@H]1O | VERO | TYPE 3 | 0.07 µg/mL |
| Nc1ncnc2c1c(Br)cn2[C@@H]1O[C@H](CO)[C@@H](O)[C@H]1O | VERO | TYPE 3 | 0.02 µg/mL |
| Nc1nc(N)c2ncn(C[C@H]3CC[C@@H](CO)C3)c2n1 | VERO | TYPE 3 | >200 µg/mL |
| Nc1cc(OCCOCP(=O)(O)O)nc(N)n1 | - | TYPE 3 | >190 µM |
| C#Cc1c(C(N)=O)ncn1[C@@H]1O[C@H](CO)[C@@H](O)[C@H]1O | VERO | TYPE 3 | 1 µg/mL |
| O=c1[nH]cnc2c1ncn2[C@@H]1C=C(CO)[C@@H](O)[C@H]1O | VERO | TYPE 3 | 2 µg/mL |
| [N-]=C=Nc1nncs1 | HEP-2 | TYPE 3 | 9.6 µg/mL |
| Nc1nccc2c1ncn2[C@@H]1C[C@H](CO)[C@@H](O)[C@H]1O | VERO | TYPE 3 | 0.2 µg/mL |
| CC(=O)Oc1ccc([C@@H]2CC(=O)c3c(cc(OC(C)=O)c(-c4c(OC(C)=O)cc5c(c4OC(C)=O)C(=O)C[C@@H](c4ccc(OC(C)=O)cc4)O5)c3OC(C)=O)O2)cc1 | MA-104 | C243 (TYPE 3) | >10 µg/mL |
| Nc1nccc2c1ncn2[C@@H]1O[C@H](CO)[C@@H](O)[C@H]1O | VERO | TYPE 3 | 2 µg/mL |
| C[C@H](COc1cc(N)nc(N)n1)OCP(=O)(O)O | - | TYPE 3 | >180 µM |
| Nc1nc2c(ncn2C[C@H]2CC[C@@H](CO)C2)c(=O)[nH]1 | VERO | TYPE 3 | >200 µg/mL |
| Nc1nccc2c1ncn2[C@@H]1C=C[C@@H](O)[C@H]1O | VERO | TYPE 3 | 2 µg/mL |
| Nc1ncnc2c1ncn2[C@H]1[C@H](O)[C@H](O)[C@]2(CO)O[C@H]12 | VERO | TYPE 3 | 0.2 µg/mL |
| Nc1nc(N)c2nnn(C[C@H]3CC[C@@H](CO)C3)c2n1 | VERO | TYPE 3 | >100 µg/mL |
| Nc1ncnc2c1ncn2C1CC(CO)[C@@H](O)[C@H]1O | VERO | TYPE 3 | ≥4 µg/mL |

4 of the rows above, restated:

{"compound": "NC(=O)c1c[se]c([C@@H]2O[C@H](CO)[C@@H](O)[C@H]2O)n1", "cell line": "VERO", "strain": "TYPE 3/C243", "result": "1 µg/mL"}
{"compound": "Nc1nccc2c1ncn2[C@@H]1C[C@H](CO)[C@@H](O)[C@H]1O", "cell line": "VERO", "strain": "TYPE 3", "result": "0.2 µg/mL"}
{"compound": "Nc1nccc2c1ncn2[C@@H]1O[C@H](CO)[C@@H](O)[C@H]1O", "cell line": "VERO", "strain": "TYPE 3", "result": "2 µg/mL"}
{"compound": "C#Cc1c(C(N)=O)ncn1[C@@H]1O[C@H](CO)[C@@H](O)[C@H]1O", "cell line": "VERO", "strain": "TYPE 3", "result": "1 µg/mL"}